Patent US20230303666A1, “Cell-free antibody engineering platform and neutralizing antibodies for sars-cov-2” (published 2023)
Where a chain is given by its changes, count along the chain named. Where “and” joins values, the source holds several entries; their conditions need not be identical. Identical values can stand only once.

Molecular target: SARS-CoV-2 S deleted of the 27 a.a. at the C-terminal and fused to the NRVRQGYS sequence of HIV-1, o (SARS-CoV-2), P0DTC2
Test: cell-based or functional assay

B1: SR4c1 (VHH, not shown: small tags and cut ends)
VHH: EVQLVESGGGLVQAGDSLRLSCAASGFQLSCYCMGWFRQAPGKEREFVASITQHAFRTYYADSVKGRFTISRDDARNTVYLQMNSLKPEDTAVYYCAAAETPNILVHENYWGQGTQVTVSS
**Q.** Which Pseudovirus neutralization % inhibition, VHH 5 nM does the source give for B1 here?
**A.** -3.34% and 3.29%

**Q.** What about the Pseudovirus neutralization % inhibition, VHH 50 nM of the same binder?
**A.** 8.59% and 11%

**Q.** And the Pseudovirus neutralization % inhibition, VHH 500 nM?
**A.** 45.2% and 34.3%

B2: SR4f3 (VHH, not shown: small tags and cut ends)
VHH: B1 VHH with E6V, G9R, M34V, H107Y
**Q.** B2 was tested. Which Pseudovirus neutralization % inhibition, VHH 5 nM did it give?
**A.** 3.97% and 0%

**Q.** And the Pseudovirus neutralization % inhibition, VHH 50 nM?
**A.** 4.58% and 9.11%

**Q.** And the Pseudovirus neutralization % inhibition, VHH 500 nM?
**A.** 28.7% and 16.9%

B3: SR4t4 (VHH, not shown: small tags and cut ends)
VHH: B1 VHH with E6V, G9R, M34V
**Q.** Which results are given for B3?
**A.** Pseudovirus neutralization % inhibition, VHH 5 nM: 4.93% and -0.626%; Pseudovirus neutralization % inhibition, VHH 50 nM: 6.99% and 5.37%; Pseudovirus neutralization % inhibition, VHH 500 nM: 52.9% and 36.5%

B4: SR4t5 (VHH, not shown: small tags and cut ends)
VHH: B1 VHH with E6V, G9R, G10V, M34V
**Q.** B4 was tested. Which Pseudovirus neutralization % inhibition, VHH 5 nM did it give?
**A.** -0.345% and 2.43%

**Q.** What about the Pseudovirus neutralization % inhibition, VHH 50 nM of the same binder?
**A.** 20.7% and 6.29%

**Q.** What about the Pseudovirus neutralization % inhibition, VHH 500 nM of the same binder?
**A.** 50.1% and 35.6%

B5: SR4t6 (VHH, not shown: small tags and cut ends)
VHH: B1 VHH with E6V, G9R, G10V, M34V, N109S
**Q.** B5 was tested. Which Pseudovirus neutralization % inhibition, VHH 5 nM did it give?
**A.** 9.48% and 4.33%

**Q.** What about the Pseudovirus neutralization % inhibition, VHH 50 nM of the same binder?
**A.** 47.7% and 31.8%

**Q.** What about the Pseudovirus neutralization % inhibition, VHH 500 nM of the same binder?
**A.** 73.5% and 66.4%

B6: SR4t9 (VHH, not shown: small tags and cut ends)
VHH: B1 VHH with E1K, E6V, G9R, G10V, S25T, M34V, R45L, N109S
**Q.** For B6, which Pseudovirus neutralization % inhibition, VHH 5 nM is on record?
**A.** 12.1% and 6.93%

**Q.** And the Pseudovirus neutralization % inhibition, VHH 50 nM?
**A.** 77.5% and 73.5%

**Q.** And the Pseudovirus neutralization % inhibition, VHH 500 nM?
**A.** 94.1% and 91.7%

B7: SR4t13 (VHH, not shown: small tags and cut ends)
VHH: KVQLVVTGRVLVQAGDSLRLSCVATGFQLSCYCVGWFRQAPGKELEFVASITQHAFRTYYADSVKGRFTISRDDAQNTVYLQMNSLEPEDTAVYYCAAAETPNILVHESYWGQGTQVTVSS
**Q.** How did the Pseudovirus neutralization % inhibition, VHH 5 nM turn out when B7 was run?
**A.** 13.8% and 4.07%

**Q.** What about the Pseudovirus neutralization % inhibition, VHH 50 nM of the same binder?
**A.** 62.1% and 51%

**Q.** What about the Pseudovirus neutralization % inhibition, VHH 500 nM of the same binder?
**A.** 95% and 92.5%

B8: SR6 (VHH, not shown: small tags and cut ends)
VHH: EVQLVESGGGLVQAGDSLRLSCAASGDCHVLWRMGWFRQAPGKEREFVAAISLDGLFTNYADSVRGRFSISADSAKNTVYLQMNSLKPEDTAVYYCAAMPFFDYWGQGTQVTVSS
**Q.** Which Pseudovirus neutralization % inhibition, VHH 5 nM does the source give for B8 here?
**A.** 13.2% and 9.55%

**Q.** And the Pseudovirus neutralization % inhibition, VHH 50 nM?
**A.** 14.5% and 14.2%

**Q.** And the Pseudovirus neutralization % inhibition, VHH 500 nM?
**A.** 31.9% and 19.4%

B9: SR6c3 (VHH, not shown: small tags and cut ends)
VHH: B8 VHH with L56Q, M99L, F102L
**Q.** Which Pseudovirus neutralization % inhibition, VHH 5 nM does the source give for B9 here?
**A.** 27.8% and 24.3%

**Q.** What about the Pseudovirus neutralization % inhibition, VHH 50 nM of the same binder?
**A.** 66.7% and 58.4%

**Q.** And the Pseudovirus neutralization % inhibition, VHH 500 nM?
**A.** 86.3% and 75.5%

B10: SR6f3 (VHH, not shown: small tags and cut ends)
VHH: B8 VHH with E1Q, E6V, K76E
**Q.** With B10 as the binder, how does the Pseudovirus neutralization % inhibition, VHH 5 nM read?
**A.** 11.5% and 8.65%

**Q.** And the Pseudovirus neutralization % inhibition, VHH 50 nM?
**A.** 15.5% and 11.9%

**Q.** And the Pseudovirus neutralization % inhibition, VHH 500 nM?
**A.** 21.4% and 19.3%

B11: SR6t4 (VHH, not shown: small tags and cut ends)
VHH: B8 VHH with E1Q, L56Q, M99L, F102L
**Q.** With B11 as the binder, how does the Pseudovirus neutralization % inhibition, VHH 5 nM read?
**A.** 20.1% and 17%

**Q.** And the Pseudovirus neutralization % inhibition, VHH 50 nM?
**A.** 64.8% and 59.5%

**Q.** What about the Pseudovirus neutralization % inhibition, VHH 500 nM of the same binder?
**A.** 84.2% and 77.8%

B12: SR6t5 (VHH, not shown: small tags and cut ends)
VHH: B8 VHH with E1Q, E6V, L56Q, M99L, F102L
**Q.** Which Pseudovirus neutralization % inhibition, VHH 5 nM does the source give for B12 here?
**A.** 12.1% and 8.81%

**Q.** What about the Pseudovirus neutralization % inhibition, VHH 50 nM of the same binder?
**A.** 39.5% and 32.5%

**Q.** And the Pseudovirus neutralization % inhibition, VHH 500 nM?
**A.** 65% and 61.3%

B13: SR6t6 (VHH, not shown: small tags and cut ends)
VHH: B8 VHH with E1Q, E6V, L56Q, K76E, M99L, F102L
**Q.** Which results are given for B13?
**A.** Pseudovirus neutralization % inhibition, VHH 5 nM: 4.24% and -1.26%; Pseudovirus neutralization % inhibition, VHH 50 nM: 32.6% and 28.9%; Pseudovirus neutralization % inhibition, VHH 500 nM: 69.2% and 62.1%

B14: SR6t9 (VHH, not shown: small tags and cut ends)
VHH: B8 VHH with E1Q, E6V, A23T, R45L, L56Q, T58A, K76E, M99L, F102L
**Q.** For B14, which Pseudovirus neutralization % inhibition, VHH 5 nM is on record?
**A.** 24.6% and 11.2%

**Q.** What about the Pseudovirus neutralization % inhibition, VHH 50 nM of the same binder?
**A.** 63.9% and 64.8%

**Q.** What about the Pseudovirus neutralization % inhibition, VHH 500 nM of the same binder?
**A.** 90.3% and 82.3%
